Entries after “also recorded” stand apart in the source; their conditions may differ.

One data set deals with C albicans cells. Nature of the data set: Fluorescence microscopy of cellular delivery of berberine. The format is cell-based, Candida albicans.
Data set [1] in a line: Fluorescence and absorbance studies of interaction with PHMB. The format is physicochemical. The following applies: 1:6 ratio between ketoconazole and PHMB.

Take `COc1ccc2cc3[n+](cc2c1OC)CCc1cc2c(cc1-3)OCO2` [Berberine]: the “Delivery of berberine into C albicans (green fluorescence of cytoplasm)” value in the data set with C albicans cells (1 μg/ml of berberine alone) is reported as “delivery of small amount of berberine”. Moreover, the “Delivery of berberine into C albicans (fluorescence of cells)” value in the data set with C albicans cells (berberine combined with PHMB (FIG. 6: 1 μg/ml berberine and 1.25 μg/ml PHMB), compared with berberine alone) is given as “considerable increase in fluorescence of cells; also recorded: increased delivery of berberine”.
Take `CC(=O)N1CCN(c2ccc(OCC3COC(Cn4ccnc4)(c4ccc(Cl)cc4Cl)O3)cc2)CC1` (stereo not drawn) [Ketoconazole]: the “Fluorescence in presence of PHMB (dropped to)” value in data set [1] is reported as about 50%.
